This note sets out measurements from ChEMBL document CHEMBL5346973 (J Med Chem, 2023).

By UniProt entry, the sequences of proteins in these tests, tags left out. Residues count along the entry.
UniProt P04756, 21-457 limits assumed: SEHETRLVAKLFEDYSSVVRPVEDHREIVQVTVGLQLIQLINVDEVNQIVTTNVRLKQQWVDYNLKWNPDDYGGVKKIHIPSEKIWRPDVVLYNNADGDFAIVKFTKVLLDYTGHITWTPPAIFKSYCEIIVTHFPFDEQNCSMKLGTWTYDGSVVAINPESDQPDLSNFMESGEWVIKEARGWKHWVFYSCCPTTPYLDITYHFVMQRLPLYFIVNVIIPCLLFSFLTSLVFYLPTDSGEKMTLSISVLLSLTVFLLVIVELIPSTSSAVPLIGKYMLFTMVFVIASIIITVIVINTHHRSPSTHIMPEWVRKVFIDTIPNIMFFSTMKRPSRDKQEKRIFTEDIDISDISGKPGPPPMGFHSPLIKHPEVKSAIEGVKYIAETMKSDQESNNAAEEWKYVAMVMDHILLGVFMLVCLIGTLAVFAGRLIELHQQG
UniProt P09690, 24-501 limits assumed: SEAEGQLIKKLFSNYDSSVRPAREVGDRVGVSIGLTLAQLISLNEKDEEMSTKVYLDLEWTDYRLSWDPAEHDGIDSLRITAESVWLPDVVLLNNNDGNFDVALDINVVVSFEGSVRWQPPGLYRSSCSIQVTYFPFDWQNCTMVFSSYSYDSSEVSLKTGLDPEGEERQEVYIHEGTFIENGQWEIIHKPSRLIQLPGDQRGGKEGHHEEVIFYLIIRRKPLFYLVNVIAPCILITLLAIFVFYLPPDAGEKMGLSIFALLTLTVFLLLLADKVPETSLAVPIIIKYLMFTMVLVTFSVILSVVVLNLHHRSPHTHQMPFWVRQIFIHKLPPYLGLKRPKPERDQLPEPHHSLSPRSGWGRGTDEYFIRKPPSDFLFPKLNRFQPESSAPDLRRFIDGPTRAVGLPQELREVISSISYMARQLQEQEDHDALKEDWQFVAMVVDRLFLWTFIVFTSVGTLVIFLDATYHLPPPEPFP
UniProt P02716, 25-520 limits assumed: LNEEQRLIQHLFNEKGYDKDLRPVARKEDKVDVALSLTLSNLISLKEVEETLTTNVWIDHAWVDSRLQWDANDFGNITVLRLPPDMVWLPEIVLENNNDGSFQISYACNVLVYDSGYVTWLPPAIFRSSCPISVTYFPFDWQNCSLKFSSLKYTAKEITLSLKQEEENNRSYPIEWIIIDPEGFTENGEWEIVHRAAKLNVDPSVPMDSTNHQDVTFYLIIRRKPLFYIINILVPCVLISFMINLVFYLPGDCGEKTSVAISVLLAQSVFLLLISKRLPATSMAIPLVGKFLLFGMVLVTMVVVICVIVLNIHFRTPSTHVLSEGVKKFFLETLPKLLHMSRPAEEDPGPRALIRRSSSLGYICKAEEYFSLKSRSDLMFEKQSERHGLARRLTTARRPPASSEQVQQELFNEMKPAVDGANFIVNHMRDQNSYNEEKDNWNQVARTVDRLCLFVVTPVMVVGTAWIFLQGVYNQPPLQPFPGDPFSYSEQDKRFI
UniProt P20782, 21-493 limits assumed: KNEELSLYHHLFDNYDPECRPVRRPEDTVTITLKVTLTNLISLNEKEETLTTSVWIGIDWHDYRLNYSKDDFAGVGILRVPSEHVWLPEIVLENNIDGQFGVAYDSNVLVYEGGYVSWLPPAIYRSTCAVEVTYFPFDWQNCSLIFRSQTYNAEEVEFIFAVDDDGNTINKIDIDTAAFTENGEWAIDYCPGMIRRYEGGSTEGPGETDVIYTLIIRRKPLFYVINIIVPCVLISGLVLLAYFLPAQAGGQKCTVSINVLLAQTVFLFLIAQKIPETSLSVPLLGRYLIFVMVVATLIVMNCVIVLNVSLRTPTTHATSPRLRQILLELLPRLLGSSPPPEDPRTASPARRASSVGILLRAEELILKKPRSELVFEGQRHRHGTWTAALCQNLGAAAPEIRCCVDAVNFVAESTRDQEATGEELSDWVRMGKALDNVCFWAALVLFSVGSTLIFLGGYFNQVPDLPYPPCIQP

In this assay the target is Nicotinic acetylcholine receptor alpha1/beta1/epsilon/delta (Mus musculus, UniProt P04756+P09690+P02716+P20782). Kind of assay: Antagonist activity at mouse alpha1beta1deltaepsilon nACh receptor expressed in Xenopus oocyte assessed as inhibition of acetylcholine-induced response at -70 mV holding potential by voltage-clamp based electrophysiological assay.

By IC50 is commonly meant the midpoint of a concentration-inhibition curve.

Take `CC[C@H](C)[C@@H]1NC(=O)[C@H](CCCNC(=N)N)NC(=O)[C@H](CCCNC(=N)N)NC(=O)[C@@H]2CSSC[C@H](NC(=O)[C@H](Cc3ccc(O)cc3)NC(=O)[C@H](CCCNC(=N)N)NC(=O)CNC(=O)[C@H](CO)NC(=O)[C@H](CO)NC(=O)[C@H](CCCNC(=N)N)NC(=O)[C@@H](NC(=O)[C@@H](N)[C@@H](C)O)CSSC[C@@H](C(=O)N[C@H](C(=O)O)C(C)C)NC(=O)[C@H](C)NC(=O)[C@H](CC(=O)O)NC(=O)[C@H]([C@@H](C)O)NC1=O)C(=O)N[C@@H](CCCNC(=N)N)C(=O)N[C@@H](CO)C(=O)N1CCC[C@H]1C(=O)N[C@@H](Cc1ccc(O)cc1)C(=O)N[C@@H](CC(=O)O)C(=O)N[C@@H](CCCNC(=N)N)C(=O)N[C@@H](CCCNC(=N)N)C(=O)N[C@@H](CCCNC(=N)N)C(=O)N[C@@H](C)C(=O)N[C@@H](Cc1ccc(O)cc1)C(=O)N2`: the half-maximal inhibitory concentration (IC50) worked out at 650 nM.

In the case of `CC[C@H](C)[C@@H]1NC(=O)[C@H](CCCNC(=N)N)NC(=O)[C@H](CCCNC(=N)N)NC(=O)[C@@H]2CSSC[C@H](NC(=O)[C@H](Cc3ccc(O)cc3)NC(=O)[C@H](CCCNC(=N)N)NC(=O)[C@H](C)NC(=O)[C@H](CO)NC(=O)[C@H](CO)NC(=O)[C@H](CCCNC(=N)N)NC(=O)[C@@H](NC(=O)[C@@H](N)[C@@H](C)O)CSSC[C@@H](C(=O)N[C@H](C(=O)O)C(C)C)NC(=O)[C@H](C)NC(=O)[C@H](CC(=O)O)NC(=O)[C@H]([C@@H](C)O)NC1=O)C(=O)N[C@@H](CCCNC(=N)N)C(=O)N[C@@H](CO)C(=O)N1CCC[C@H]1C(=O)N[C@@H](Cc1ccc(O)cc1)C(=O)N[C@@H](CC(=O)O)C(=O)N[C@@H](CCCNC(=N)N)C(=O)N[C@@H](CCCNC(=N)N)C(=O)N[C@@H](CCCNC(=N)N)C(=O)N[C@@H](CCCNC(=N)N)C(=O)N[C@@H](Cc1ccc(O)cc1)C(=O)N2`, the concentration for half-maximal inhibition (IC50) turned out to be 770 nM.

Consider `CC[C@H](C)[C@@H]1NC(=O)[C@H](CCCNC(=N)N)NC(=O)[C@H](CCCNC(=N)N)NC(=O)[C@@H]2CSSC[C@H](NC(=O)[C@H](Cc3ccc(O)cc3)NC(=O)[C@H](CCCNC(=N)N)NC(=O)CNC(=O)[C@H](CO)NC(=O)[C@H](CO)NC(=O)[C@H](CCCNC(=N)N)NC(=O)[C@@H](NC(=O)[C@@H](N)[C@@H](C)O)CSSC[C@@H](C(=O)N[C@H](C(=O)O)C(C)C)NC(=O)[C@H](C)NC(=O)[C@H](CC(=O)O)NC(=O)[C@H]([C@@H](C)O)NC1=O)C(=O)N[C@@H](CCCNC(=N)N)C(=O)N[C@@H](CO)C(=O)N1CCC[C@H]1C(=O)N[C@@H](Cc1ccc(O)cc1)C(=O)N[C@@H](CC(=O)O)C(=O)N[C@@H](CCCNC(=N)N)C(=O)N[C@@H](CCCNC(=N)N)C(=O)N[C@@H](C)C(=O)N[C@@H](CCCNC(=N)N)C(=O)N[C@@H](Cc1ccc(O)cc1)C(=O)N2`, for which the IC50 is 920 nM.

Consider `CC[C@H](C)[C@@H]1NC(=O)[C@H](CCCNC(=N)N)NC(=O)[C@H](C)NC(=O)[C@@H](NC(=O)[C@H](Cc2ccc(O)cc2)NC(=O)[C@H](CCCNC(=N)N)NC(=O)[C@H](CCCNC(=N)N)NC(=O)[C@H](CCCNC(=N)N)NC(=O)[C@H](CCCNC(=N)N)NC(=O)[C@H](CC(=O)O)NC(=O)[C@H](Cc2ccc(O)cc2)NC(=O)[C@@H]2CCCN2C(=O)[C@H](CO)NC(=O)[C@H](CCCNC(=N)N)NC(=O)[C@@H]2CSSC[C@H](NC(=O)[C@@H](N)[C@@H](C)O)C(=O)N[C@@H](CCCNC(=N)N)C(=O)N[C@@H](CO)C(=O)N[C@@H](CO)C(=O)NCC(=O)N[C@@H](CCCNC(=N)N)C(=O)N[C@@H](Cc3ccc(O)cc3)C(=O)N2)CSSC[C@@H](C(=O)N[C@H](C(=O)O)C(C)C)NC(=O)[C@H](C)NC(=O)[C@H](CC(=O)O)NC(=O)[C@H]([C@@H](C)O)NC1=O`, for which the IC50 was 2150 nM.

In the case of `CC[C@H](C)[C@@H]1NC(=O)[C@H](CCCNC(=N)N)NC(=O)[C@H](CCCNC(=N)N)NC(=O)[C@@H]2CSSC[C@H](NC(=O)[C@H](Cc3ccc(O)cc3)NC(=O)[C@H](CCCNC(=N)N)NC(=O)CNC(=O)[C@H](CO)NC(=O)[C@H](CO)NC(=O)[C@H](CCCNC(=N)N)NC(=O)[C@@H](NC(=O)[C@@H](N)[C@@H](C)O)CSSC[C@@H](C(=O)N[C@H](C(=O)O)C(C)C)NC(=O)[C@H](C)NC(=O)[C@H](CC(=O)O)NC(=O)[C@H]([C@@H](C)O)NC1=O)C(=O)N[C@@H](CCCNC(=N)N)C(=O)N[C@@H](CO)C(=O)N1CCC[C@H]1C(=O)N[C@@H](Cc1ccc(O)cc1)C(=O)N[C@@H](CC(=O)O)C(=O)N[C@@H](CCCNC(=N)N)C(=O)N[C@@H](CCCNC(=N)N)C(=O)N[C@@H](CCCNC(=N)N)C(=O)N[C@@H](CCCNC(=N)N)C(=O)N[C@@H](C)C(=O)N2`, the IC50 stood at 1240 nM.

Turning to `CC[C@H](C)[C@@H]1NC(=O)[C@H](CCCNC(=N)N)NC(=O)[C@H](CCCNC(=N)N)NC(=O)[C@@H]2CSSC[C@H](NC(=O)[C@H](Cc3ccc(O)cc3)NC(=O)[C@H](CCCNC(=N)N)NC(=O)CNC(=O)[C@H](CO)NC(=O)[C@H](CO)NC(=O)[C@H](CCCNC(=N)N)NC(=O)[C@@H](NC(=O)[C@@H](N)[C@@H](C)O)CSSC[C@@H](C(=O)N[C@H](C(=O)O)C(C)C)NC(=O)[C@H](C)NC(=O)[C@H](CC(=O)O)NC(=O)[C@H](C)NC1=O)C(=O)N[C@@H](CCCNC(=N)N)C(=O)N[C@@H](CO)C(=O)N1CCC[C@H]1C(=O)N[C@@H](Cc1ccc(O)cc1)C(=O)N[C@@H](CC(=O)O)C(=O)N[C@@H](CCCNC(=N)N)C(=O)N[C@@H](CCCNC(=N)N)C(=O)N[C@@H](CCCNC(=N)N)C(=O)N[C@@H](CCCNC(=N)N)C(=O)N[C@@H](Cc1ccc(O)cc1)C(=O)N2`, the IC50 was determined as 710 nM.

As to `CC[C@H](C)[C@@H]1NC(=O)[C@H](CCCNC(=N)N)NC(=O)[C@H](CCCNC(=N)N)NC(=O)[C@@H](NC(=O)[C@H](Cc2ccc(O)cc2)NC(=O)[C@H](CCCNC(=N)N)NC(=O)[C@H](CCCNC(=N)N)NC(=O)[C@H](CCCNC(=N)N)NC(=O)[C@H](CCCNC(=N)N)NC(=O)[C@H](CC(=O)O)NC(=O)[C@H](Cc2ccc(O)cc2)NC(=O)[C@@H]2CCCN2C(=O)[C@H](CO)NC(=O)[C@H](CCCNC(=N)N)NC(=O)[C@@H]2CSSC[C@H](NC(=O)[C@@H](N)[C@@H](C)O)C(=O)N[C@@H](CCCNC(=N)N)C(=O)N[C@@H](CO)C(=O)N[C@@H](CO)C(=O)N[C@@H](C)C(=O)N[C@@H](CCCNC(=N)N)C(=O)N[C@@H](Cc3ccc(O)cc3)C(=O)N2)CSSC[C@H](C(=O)N[C@H](C(=O)O)C(C)C)NC(=O)[C@H](C)NC(=O)[C@H](CC(=O)O)NC(=O)[C@H]([C@@H](C)O)NC1=O`, the IC50 was determined as 1140 nM.

As to `CC[C@H](C)[C@@H]1NC(=O)[C@H](CCCNC(=N)N)NC(=O)[C@H](CCCNC(=N)N)NC(=O)[C@@H]2CSSC[C@H](NC(=O)[C@H](Cc3ccc(O)cc3)NC(=O)[C@H](CCCNC(=N)N)NC(=O)CNC(=O)[C@H](C)NC(=O)[C@H](CO)NC(=O)[C@H](CCCNC(=N)N)NC(=O)[C@@H](NC(=O)[C@@H](N)[C@@H](C)O)CSSC[C@@H](C(=O)N[C@H](C(=O)O)C(C)C)NC(=O)[C@H](C)NC(=O)[C@H](CC(=O)O)NC(=O)[C@H]([C@@H](C)O)NC1=O)C(=O)N[C@@H](CCCNC(=N)N)C(=O)N[C@@H](CO)C(=O)N1CCC[C@H]1C(=O)N[C@@H](Cc1ccc(O)cc1)C(=O)N[C@@H](CC(=O)O)C(=O)N[C@@H](CCCNC(=N)N)C(=O)N[C@@H](CCCNC(=N)N)C(=O)N[C@@H](CCCNC(=N)N)C(=O)N[C@@H](CCCNC(=N)N)C(=O)N[C@@H](Cc1ccc(O)cc1)C(=O)N2`, the IC50 amounted to 910 nM.

In the case of `CC[C@H](C)[C@@H]1NC(=O)[C@H](CCCNC(=N)N)NC(=O)[C@H](CCCNC(=N)N)NC(=O)[C@@H](NC(=O)[C@H](C)NC(=O)[C@H](CCCNC(=N)N)NC(=O)[C@H](CCCNC(=N)N)NC(=O)[C@H](CCCNC(=N)N)NC(=O)[C@H](CCCNC(=N)N)NC(=O)[C@H](CC(=O)O)NC(=O)[C@H](Cc2ccc(O)cc2)NC(=O)[C@@H]2CCCN2C(=O)[C@H](CO)NC(=O)[C@H](CCCNC(=N)N)NC(=O)[C@@H]2CSSC[C@H](NC(=O)[C@@H](N)[C@@H](C)O)C(=O)N[C@@H](CCCNC(=N)N)C(=O)N[C@@H](CO)C(=O)N[C@@H](CO)C(=O)NCC(=O)N[C@@H](CCCNC(=N)N)C(=O)N[C@@H](Cc3ccc(O)cc3)C(=O)N2)CSSC[C@@H](C(=O)N[C@H](C(=O)O)C(C)C)NC(=O)[C@H](C)NC(=O)[C@H](CC(=O)O)NC(=O)[C@H]([C@@H](C)O)NC1=O`, the half-maximal inhibitory concentration (IC50) came to 2820 nM.

Turning to `CC[C@H](C)[C@@H]1NC(=O)[C@H](CCCNC(=N)N)NC(=O)[C@H](CCCNC(=N)N)NC(=O)[C@@H]2CSSC[C@H](NC(=O)[C@H](Cc3ccc(O)cc3)NC(=O)[C@H](CCCNC(=N)N)NC(=O)CNC(=O)[C@H](CO)NC(=O)[C@H](CO)NC(=O)[C@H](CCCNC(=N)N)NC(=O)[C@@H](NC(=O)[C@@H](N)[C@@H](C)O)CSSC[C@@H](C(=O)N[C@H](C(=O)O)C(C)C)NC(=O)[C@H](C)NC(=O)[C@H](CC(=O)O)NC(=O)[C@H]([C@@H](C)O)NC1=O)C(=O)N[C@@H](CCCNC(=N)N)C(=O)N[C@@H](CO)C(=O)N[C@@H](C)C(=O)N[C@@H](Cc1ccc(O)cc1)C(=O)N[C@@H](CC(=O)O)C(=O)N[C@@H](CCCNC(=N)N)C(=O)N[C@@H](CCCNC(=N)N)C(=O)N[C@@H](CCCNC(=N)N)C(=O)N[C@@H](CCCNC(=N)N)C(=O)N[C@@H](Cc1ccc(O)cc1)C(=O)N2`, the IC50 was found to be 1040 nM.

Take `CC[C@H](C)[C@@H]1NC(=O)[C@H](CCCNC(=N)N)NC(=O)[C@H](CCCNC(=N)N)NC(=O)[C@@H](NC(=O)[C@H](Cc2ccc(O)cc2)NC(=O)[C@H](CCCNC(=N)N)NC(=O)[C@H](CCCNC(=N)N)NC(=O)[C@H](CCCNC(=N)N)NC(=O)[C@H](CCCNC(=N)N)NC(=O)[C@H](CC(=O)O)NC(=O)[C@H](C)NC(=O)[C@@H]2CCCN2C(=O)[C@H](CO)NC(=O)[C@H](CCCNC(=N)N)NC(=O)[C@@H]2CSSC[C@H](NC(=O)[C@@H](N)[C@@H](C)O)C(=O)N[C@@H](CCCNC(=N)N)C(=O)N[C@@H](CO)C(=O)N[C@@H](CO)C(=O)NCC(=O)N[C@@H](CCCNC(=N)N)C(=O)N[C@@H](Cc3ccc(O)cc3)C(=O)N2)CSSC[C@@H](C(=O)N[C@H](C(=O)O)C(C)C)NC(=O)[C@H](C)NC(=O)[C@H](CC(=O)O)NC(=O)[C@H]([C@@H](C)O)NC1=O`: the IC50 amounted to 970 nM.
